Pooled drug test results. Numbers come from NIAID ChemDB, via PubChem.

All rows: whole-cell or culture tests; organism: HIV-1

a–b is a range or a potency band.

SMILES	mutations	measure	strain or isolate	read by	cells	value
CCCC(C(=O)O)c1c(C)nc2cc(F)c(F)cc2c1-c1ccc(C)cc1	-	EC50	-	luciferase / reporter gene	C8166	<20 µM
CC(C)C1=C2[C@H]3CC[C@@H]4[C@@]5(C)CC[C@H](OC(=O)[C@H]6C[C@@H](C(=O)O)C6(C)C)C(C)(C)[C@@H]5CC[C@@]4(C)[C@]3(C)CC[C@@]2(CC(=O)N(CCN(C)C)Cc2ccncn2)CC1=O	-	EC50	92HT599	p24 / ELISA	MT-2	<1 µM
C=CCC(C(=O)O)c1c(C)nc2ccc(Cl)cc2c1-c1ccc(Cl)cc1	-	EC50	-	luciferase / reporter gene	C8166	<20 µM
Cc1ncc(-c2ccc(OCCOC(C)C)cn2)c(N2CCC(C)(C)CC2)c1[C@H](OC(C)(C)C)C(=O)O	-	EC50	NL4-3	luminescence	MT-2	0.002 µM
Cc1ccnc2c1NC(=O)c1cccnc1N2C1CC1	V106I	EC50	SF33	p24 / ELISA	TZM-bl	0.12 µM
Cc1ncc(-c2ccc(OCCC3CCCCC3)cn2)c(N2CCC(C)(C)CC2)c1[C@H](OC(C)(C)C)C(=O)O	-	EC50	NL4-3	luminescence	MT-2	0.0016 µM
N#Cc1cc2[nH]c3ccccc3c2n(-c2ccc([N+](=O)[O-])cc2)c1=O	RT-Y181C	EC50	A	cytopathic effect / MTT	MT-4	2.51 µM
Nc1nc(=O)n([C@H]2C=C[C@@H](CO)O2)cc1F	RT-M41L D67N K70R T215Y K219Q	EC50	XM-AZT-resistant	p24	PBMC	<1.1 µM
COc1ncc(-c2c(C(OC(C)C)C(=O)O)c(C)nc3ccc(Cl)cc23)cn1	-	EC50	-	luciferase / reporter gene	C8166	<20 µM
COCc1nc(Nc2ccc(C#N)cc2)nc(Nc2c(C)cc(/C=C/C#N)cc2C)c1C(=O)NCCNC(C)=O	-	EC50	MDR	-	MT4 CMV-EGFP	0.209 µM
CN(C)c1nc(-c2ccc(N3C(=O)C=CC4C3c3ccccc3N4C)cc2)no1	-	EC50	LAI	cytopathic effect / MTT	MT-4	>32 µM
CC(=O)N(CC1CCCCC1)C1CN(C)CCn2c1nc(C(=O)NCc1ccc(F)cc1)c(O)c2=O	-	EC95	-	p24	MT-4	<1 µM
CC(C)CN(C[C@@H](O)[C@H](Cc1ccccc1)NC(=O)O[C@H]1CO[C@H]2OCC[C@H]21)S(=O)(=O)c1ccc2c(c1)OCO2	-	EC50	BaL	p24	PHA-PBM	0.0002 µM
COCc1nc(Nc2ccc(C#N)cc2)nc(Nc2c(C)cc(/C=C/C#N)cc2C)c1C(=O)NC1CC1	-	EC50	MDR	-	MT4 CMV-EGFP	0.141 µM
N#Cc1cc(Cl)cc(Oc2c(Br)ccc(CC(=O)Nc3ccc(S(N)(=O)=O)cc3Cl)c2F)c1	V106A/F227C	EC50	-	-	MT-4	0.173 µM
COCCNC(=O)c1c(COC)nc(Nc2ccc(C#N)cc2)nc1Nc1c(C)cc(/C=C/C#N)cc1C	-	EC50	K103N + Y181C	-	MT4 CMV-EGFP	0.0145 µM
CC1c2nc(C(=O)NCc3ccc(F)cc3)c(O)c(=O)n2CCN1Cc1cocn1	-	EC50	-	p24	MT-4	<1 µM
CC(C)C1=C2[C@H]3CC[C@@H]4[C@@]5(C)CC[C@H](OC(=O)[C@H]6C[C@@H](C(=O)O)C6(C)C)C(C)(C)[C@@H]5CC[C@@]4(C)[C@]3(C)CC[C@@]2([C@@H](O)CNC(=O)C(C)(C)NC(=O)c2nc3ccccc3[nH]2)CC1=O	-	EC50	92HT599	p24 / ELISA	MT-2	<1 µM
CC(C)=CCOc1cc(NC(=S)c2ccoc2C)ccc1Cl	RT-V108I	EC50	NL4-3 (RT V108I)	cytopathic effect / XTT	CEM + CEM-SS	0.01 µM
CC1(C)NC(=O)Cn2c1nc(C(=O)NCc1ccc(F)cc1)c(O)c2=O	-	EC95	-	p24	MT-4	<50 µM
COCc1nc(Nc2ccc(C#N)cc2)nc(Oc2c(C)cc(/C=C(\C)C#N)cc2C)c1C(=O)NCc1ccncc1	-	EC50	L1001+K103N	-	MT4 CMV-EGFP	0.324 µM
COc1ccc(-c2c(C(OC(C)C)C(=O)O)c(C)nc3ccc(Cl)cc23)c(F)c1	-	EC50	-	luciferase / reporter gene	C8166	<20 µM
Cc1cc(/C=C/C#N)cc(C)c1Oc1nc(NC2CCN(Cc3cccc(Br)c3)CC2)nc2ccsc12	-	EC50	RES056	MTT	MT-4	0.216 µM
Cn1ccc(CN2CCn3c(nc(C(=O)NCc4ccc(F)cc4)c(O)c3=O)C23CC3)n1	-	EC50	-	p24	MT-4	<1 µM
COc1ccnc2[nH]cc(C(=O)C(=O)N3C4CCCC3CN(C(=O)c3ccccc3)C4)c12	-	EC50	PVO	luciferase	TZM-bl	0.51 µM
Cc1nc2ccc(Cl)cc2c(-c2ccc(C(C)(C)C)cc2)c1C(OC(C)C)C(=O)O	-	EC50	-	luciferase / reporter gene	C8166	<20 µM
Cc1cc(C#N)cc(C)c1Oc1nc(NC2CCN(Cc3ccc(S(C)(=O)=O)cc3)CC2)nc2sccc12	NNRTI-resistant (RT Y181C)	EC50	IIIB	MTT	MT-4	0.00596 µM
Cc1nc(CN2CCn3c(nc(C(=O)NCc4ccc(F)cc4)c(O)c3=O)C2(C)C)cs1	-	EC50	-	p24	MT-4	<1 µM
COCc1nc(Nc2ccc(C#N)cc2)nc(Nc2c(C)cc(/C=C/C#N)cc2C)c1C(=O)NCCc1ccc(S(N)(=O)=O)cc1	-	EC50	MDR	-	MT4 CMV-EGFP	0.191 µM
O=C1Nc2ccc(Cl)cc2[C@@](/C=C/C2CC2)(C(F)(F)F)N1	RT-Y188L	EC90	-	-	-	~0.08 µM
COC[C@@H](c1ccc(C(F)(F)F)cc1)N1CCN(C2(C)CCN(C(=O)c3c(C)ncnc3C)CC2)C[C@@H]1C	-	EC50	S	-	PBMC	0.00073 µM
CC(C)C1=C2[C@H]3CC[C@@H]4[C@@]5(C)CC[C@H](OC(=O)[C@H]6C[C@@H](C(=O)O)C6(C)C)C(C)(C)[C@@H]5CC[C@@]4(C)[C@]3(C)CC[C@@]2([C@@H](O)CNCC(C)(C)NC(=O)c2cccc(Cl)c2)CC1=O	-	EC50	92HT599	p24 / ELISA	MT-2	<1 µM
Cc1ncc(-c2ccc(OCCN3CCC(C)CC3)cn2)c(N2CCC(C)(C)CC2)c1[C@H](OC(C)(C)C)C(=O)O	-	EC50	NL4-3	luminescence	MT-2	0.0144 µM
O=C1Nc2ccc(F)c(F)c2[C@@](/C=C/C2CC2)(C(F)(F)F)N1	RT-G190S	EC90	-	-	-	~0.125 µM
CC(C)=CCOc1cc(NC(=S)c2ccsc2C)ccc1Cl	-	EC50	BaL	cytopathic effect / XTT	MAC	0.008 µM
COCc1nc(Nc2ccc(C#N)cc2)nc(Nc2c(C)cc(/C=C/C#N)cc2C)c1C(=O)NCCC#N	-	EC50	IIIB	-	MT4 CMV-EGFP	0.00126 µM
COc1cc(-c2ccc(N=Nc3ccc4c(S(=O)(=O)O)cc(S(=O)(=O)O)c(N)c4c3O)c(OC)c2)ccc1N=Nc1ccc2c(S(=O)(=O)O)cc(S(=O)(=O)O)c(N)c2c1O	-	EC50	G	cytopathic effect / XTT	CEM + CEM-SS	0.6 µM
CCCCSc1ncc(-c2cnc(C)c([C@H](OC(C)(C)C)C(=O)O)c2N2CCC(C)(C)CC2)cc1F	-	EC50	NL4-3	luminescence	MT-2	0.0042 µM
Cc1ccc(CN2CCC(Nc3nc(Oc4c(C)cc(/C=C/C#N)cc4C)c4sccc4n3)CC2)cc1	NNRTI-resistant (RT Y181C)	EC50	IIIB	MTT	MT-4	0.0297 µM
CN1c2ccccc2C2C1C=C(c1noc(=O)[nH]1)C(=O)N2c1ccc([N+](=O)[O-])cc1	-	EC50	LAI	cytopathic effect / MTT	MT-4	>32 µM
Cc1ccc(OCCNc2ccc(-c3cnc(C)c([C@H](OC(C)(C)C)C(=O)O)c3N3CCC(C)(C)CC3)nc2)cc1F	-	EC50	NL4-3	luminescence	MT-2	0.0016 µM
Nc1nc(NC2CC2)c2ncn([C@H]3C=C[C@@H](CO)C3)c2n1	-	EC50	NL-XM WT	p24	PBMC	<4.5 µM
COCc1nc(Nc2ccc(C#N)cc2)nc(Nc2c(C)cc(/C=C/C#N)cc2C)c1C(=O)N(C)CCN(C)C	-	EC50	L1001+K103N	-	MT4 CMV-EGFP	0.49 µM
CC(C)c1nc(-c2ccc(N3C(=O)C=CC4C3c3ccccc3N4C)cc2)no1	-	EC50	LAI	cytopathic effect / MTT	MT-4	1–32 µM
O=C(O)c1cc(-n2cccc2)ccc1Cl	-	EC50	93IN101 R5 CLADE C	p24	PBMC + MT-2	19.73 µM
CN1c2ccccc2C2C1C=C(C#N)C(=O)N2c1ccc(-c2ccsc2)cc1	-	EC50	LAI	cytopathic effect / MTT	MT-4	>32 µM
CC(C)C1=C2[C@H]3CC[C@@H]4[C@@]5(C)CC[C@H](OC(=O)[C@H]6C[C@@H](C(=O)O)C6(C)C)C(C)(C)[C@@H]5CC[C@@]4(C)[C@]3(C)CC[C@@]2(CCNCC(C)(C)NC(=O)c2ccc(N3CCS(=O)(=O)CC3)cc2)CC1=O	-	EC50	92HT599	p24 / ELISA	MT-2	<1 µM
CCOc1ccc(-c2c(C(OC(C)C)C(=O)O)c(C)nc3ccc(Cl)cc23)cc1	-	EC50	-	luciferase / reporter gene	C8166	<20 µM
CC(=O)c1ccc(C)cc1NC(C(N)=O)c1c(Cl)cccc1Cl	RT-Y181C	EC50	UC82-R (RT-Y181C)	cytopathic effect / XTT	CEM + CEM-SS	>1 µM
Cc1ncc(-c2ccc(OCCOc3cccc(Cl)c3)cn2)c(N2CCC(C)(C)CC2)c1[C@H](OC(C)(C)C)C(=O)O	-	EC50	NL4-3	luminescence	MT-2	0.0008 µM
CCCc1nc(-c2ccc(N3C(=O)C=CC4C3c3ccccc3N4C)cc2)no1	-	EC50	LAI	cytopathic effect / MTT	MT-4	1–32 µM
Cc1nc2ccc(Cl)cc2c(-c2ccccc2)c1C(OC(C)C)C(=O)O	-	EC50	-	luciferase / reporter gene	C8166	<20 µM
Cc1cc(/C=C/C#N)cc(C)c1Oc1nc(NC2CCN(Cc3cccc(F)c3)CC2)nc2ccsc12	NNRTI-resistant (RT F227L V106A)	EC50	IIIB	MTT	MT-4	0.0569 µM
CC(C)CN1c2ccccc2C2C1C=C(C#N)C(=O)N2c1ccc([N+](=O)[O-])cc1	-	EC50	LAI	cytopathic effect / MTT	MT-4	<1 µM
Cc1cc(/C=C/C#N)cc(C)c1Oc1nc(NC2CCN(Cc3ccc([N+](=O)[O-])cc3)CC2)nc2ccsc12	NNRTI-resistant (RT Y188L)	EC50	IIIB	MTT	MT-4	0.117 µM
COc1ccnc2[nH]cc(C(=O)C(=O)N3C4CC3CN(C(=O)c3ccccc3)C4)c12	-	EC90	SF162	luciferase	TZM-bl	>250 µM
CC(C)C1=C2[C@H]3CC[C@@H]4[C@@]5(C)CC[C@H](OC(=O)[C@H]6C[C@@H](C(=O)O)C6(C)C)C(C)(C)[C@@H]5CC[C@@]4(C)[C@]3(C)CC[C@@]2([C@@H](O)CNCC(C)(C)N)CC1=O	-	EC50	92HT599	p24 / ELISA	MT-2	<1 µM
Cc1cc(/C=C/C#N)cc(C)c1Oc1nc(NC2CCN(Cc3ccc(Cl)cc3)CC2)nc2ccsc12	NNRTI-resistant (RT L100I)	EC50	IIIB	MTT	MT-4	0.0428 µM
O=C(NCc1ccc(F)cc1)c1nc2n(c(=O)c1O)CN1CCSC21	-	EC95	-	p24	MT-4	<50 µM

Rows are shuffled and stem from different studies. An empty or dashed field is not shown. ECn is the concentration giving n% inhibition of infection, replication or growth.